Measured values from several laboratories, pooled; numbers as filed in NIAID ChemDB.

Shared fields: whole-cell or culture tests; agent: Hepatitis C virus

a–b is a range or a potency band.

{"SMILES": "CCCCn1c(=O)c2ccccc2c2cc(C(O)(C(F)(F)F)C(F)(F)F)c3c(c21)OCO3", "strain": "2a", "cells": "Huh7.5.1", "method": "PCR", "read-out": "EC50", "value": "14 µM"}
{"SMILES": "COc1ccc(/C=C/CN2CCC(C(=O)Nc3cccc(-c4ccco4)c3)CC2)cc1", "strain": "JFH-1", "cells": "Huh7", "method": "PCR", "read-out": "inhibition", "dose": "15 µM", "value": "<40%"}
{"SMILES": "NC(=S)Nc1ccc2c(c1)Cc1cc(Br)ccc1-2", "cells": "Ava5-EG(delta4AB)SEAP", "method": "reporter gene / fluorescence", "read-out": "EC50", "value": "0.001–1 µM"}
{"SMILES": "C=CCNC(=O)C(=O)C(CCCC)NC(=O)[C@@H]1C2[C@H](CN1C(=O)[C@@H](NC(=O)NC(C(=O)OC(C)c1ccccc1)C(C)(C)C)C(C)(C)C)C2(C)C", "method": "replicon", "read-out": "EC90", "value": "4.7 µM"}
{"SMILES": "CC(=O)OC[C@]12[C@H](OC(C)=O)[C@H](OCc3ccccc3)[C@@H]3[C@@H](OC(C)=O)[C@@]14O[C@@]3(C)COC(=O)c1cccnc1C(C)C(C)C(=O)O[C@@H]([C@H](OC(C)=O)[C@@H]2OC(C)=O)[C@]4(C)O", "strain": "Subgenomic replicon S52", "changes": "T1056A T1429I S2204I", "cells": "Huh7.5", "method": "luciferase", "read-out": "inhibition", "dose": "50 µM", "value": "78%"}
{"SMILES": "CCN(CC)C(=S)Nc1cccc(OCCCCCOc2ccc(-c3ccccc3)cc2)c1", "cells": "Ava5-EG(delta4AB)SEAP", "method": "reporter gene / fluorescence", "read-out": "EC50", "value": "0.001–1 µM"}
{"SMILES": "CCOc1ccc(CN2CCC(C(=O)Nc3ccccc3-c3cccc(OC)c3)CC2)cc1", "strain": "JFH-1", "cells": "Huh7", "method": "PCR", "read-out": "inhibition", "dose": "15 µM", "value": "<40%"}
{"SMILES": "CC(C)(C)C(NC(=O)N[C@H](C(=O)N1C[C@H]2C([C@H]1C(=O)NC(CC1CCC1)C(=O)C(N)=O)C2(C)C)C1Cc2ccccc2C1)C(=O)O", "method": "replicon", "read-out": "EC90", "value": "5 µM"}
{"SMILES": "CC1(C)CC(=O)C2=C(C1)Nc1c(O)cccc1N[C@H]2c1ccc(OCc2ccccc2)cc1F", "strain": "1b", "method": "luciferase / reporter gene / replicon", "read-out": "EC50", "value": "6.76 µM"}
{"SMILES": "COc1cccc(CN2CCC(C(=O)Nc3ccc(Oc4ccccc4F)cc3)CC2)c1", "strain": "JFH-1", "cells": "Huh7", "method": "PCR", "read-out": "inhibition", "dose": "15 µM", "value": "≥40%"}
{"SMILES": "C[C@@]1(F)[C@H](O)[C@@H](CO)O[C@H]1n1cc(Br)c2c(N)ncnc21", "cells": "CEM", "method": "replicon", "read-out": "EC90", "value": ">10 µM"}
{"SMILES": "CNC(=O)c1c(-c2ccc(F)cc2)oc2cc(N(Cc3ccc(B(O)O)c(F)c3)S(C)(=O)=O)c(C3CC3)cc12", "strain": "JFH1 Genotype 2a", "cells": "Huh7.5", "method": "luciferase", "read-out": "EC50", "value": "0.0076 µM"}
{"SMILES": "NC(=S)Nc1cccc(OCCCCCCc2ccccc2)c1", "cells": "Ava5-EG(delta4AB)SEAP", "method": "reporter gene / fluorescence", "read-out": "EC50", "value": "0.001–1 µM"}
{"SMILES": "COc1cccc(CN2CCC(C(=O)Nc3cccc(-c4cccc(F)c4)c3)CC2)c1OC", "strain": "JFH-1", "cells": "Huh7", "method": "PCR", "read-out": "inhibition", "dose": "15 µM", "value": "≥40%"}
{"SMILES": "CCCn1cc(CNC(=O)[C@]23CCC(C)(C)CC2C2=CCC4[C@@]5(C)CC[C@H](O)C(C)(C)C5CC[C@@]4(C)[C@]2(C)C[C@H]3O)nn1", "cells": "Huh7", "method": "luciferase / entry", "read-out": "inhibition", "dose": "5 µM", "value": "4.9%"}
{"SMILES": "C#Cc1cn([C@@H]2O[C@H](CO)[C@@H](O)[C@@]2(C)F)c2nc(N)nc(N)c12", "cells": "CEM", "method": "replicon", "read-out": "EC90", "value": ">10 µM"}
{"SMILES": "NC(=S)Nc1cccc(OCCCCCOc2ccc(Br)cc2)c1", "cells": "Ava5-EG(delta4AB)SEAP", "method": "reporter gene / fluorescence", "read-out": "EC50", "value": "0.001–1 µM"}
{"SMILES": "C[C@@H](NC(=O)C(=O)C(CC1CC1)NC(=O)[C@@H]1C2[C@H](CN1C(=O)[C@@H](NC(=O)N[C@H](C(=O)OC(C)(C)C)C(C)(C)C)C(C)(C)C)C2(C)C)c1ccccc1", "method": "replicon", "read-out": "EC90", "value": "0.3 µM"}
{"SMILES": "C[C@@]1(F)[C@H](O)[C@@H](CO)O[C@@H]1n1cc(C#Cc2ccccc2)c2c(N)ncnc21", "cells": "CEM", "method": "replicon", "read-out": "EC90", "value": ">10 µM"}
{"SMILES": "O=C(N[C@@H](C(=O)N1CCC[C@H]1c1ncc(-c2ccc(-c3ccc(-c4cnc([C@@H]5CCCN5C(=O)[C@H](NC(=O)C5CC5)c5ccccc5)s4)cc3)cc2)s1)c1ccccc1)C1CC1", "strain": "genotype 2a", "cells": "Huh7.5", "method": "luciferase / reporter gene", "read-out": "EC50", "value": "0.00025 µM"}
{"SMILES": "CC1(C)CC(=O)C2=C(C1)Nc1c(O)cccc1N(C(=O)c1ccc(Br)cn1)C2c1ccc(OCc2ccccc2)cc1F", "strain": "1b", "method": "luciferase / reporter gene / replicon", "read-out": "EC50", "value": "6.36 µM"}
{"SMILES": "COC(=O)N[C@H](C(=O)N1CCCC1c1ncc(-c2ccc(-c3ccc(-c4cnc([C@@H]5CC(C)CN5C(=O)[C@@H](NC(=O)CO)C(C)C)[nH]4)cc3)cc2)[nH]1)C(C)C", "strain": "1a", "changes": "L31V", "cells": "Lunet", "method": "luciferase", "read-out": "EC50", "value": "0.0035 µM"}
{"SMILES": "Cc1cc(Cn2cc(CNC(=O)[C@]34CCC(C)(C)CC3C3=CCC5[C@@]6(C)CC[C@H](O)C(C)(C)C6CC[C@@]5(C)[C@]3(C)C[C@H]4O)nn2)c(C)cc1Cn1cc(CNC(=O)[C@]23CCC(C)(C)CC2C2=CCC4[C@@]5(C)CC[C@H](O)C(C)(C)C5CC[C@@]4(C)[C@]2(C)C[C@H]3O)nn1", "cells": "Huh7", "method": "luciferase / entry", "read-out": "inhibition", "dose": "5 µM", "value": "81.3%"}
{"SMILES": "CC1CCC(C(=O)N(c2cc(C#CC(C)(C)C)sc2C(=O)O)C2CCC(O)CC2)CC1", "strain": "Con1 (gt 1b)", "changes": "A486V", "cells": "Huh7", "method": "luciferase", "read-out": "fold resistance", "value": "77.5"}
{"SMILES": "C[C@@]1(F)[C@H](O)[C@@H](CO)O[C@H]1n1cc(C#Cc2ccccc2)c2c(N)ncnc21", "cells": "CEM", "method": "replicon", "read-out": "EC90", "value": ">10 µM"}
{"SMILES": "CC1(C)CC(=O)C2=C(C1)Nc1c(O)cccc1N(C(=O)c1ccccc1F)[C@H]2c1ccc(OCc2ccccc2)cc1F", "strain": "1b", "method": "luciferase / reporter gene / replicon", "read-out": "EC50", "value": "0.53 µM"}
{"SMILES": "CC1(C)CC[C@@]2(C(=O)NCCOCCNC(=O)[C@]34CCC(C)(C)CC3C3=CCC5[C@@]6(C)CC[C@H](O)C(C)(C)C6CC[C@@]5(C)[C@]3(C)C[C@H]4O)C(C1)C1=CCC3[C@@]4(C)CC[C@H](O)C(C)(C)C4CC[C@@]3(C)[C@]1(C)C[C@H]2O", "cells": "Huh7", "method": "luciferase / entry", "read-out": "inhibition", "dose": "5 µM", "value": "83.6%"}
{"SMILES": "CC(C)(C)C(NC(=O)N[C@H](C(=O)N1C[C@H]2C([C@H]1C(=O)NC(CC1CC1)C(=O)C(N)=O)C2(C)C)C1Cc2ccccc2C1)C(=O)O", "method": "replicon", "read-out": "EC90", "value": "4.1 µM"}
{"SMILES": "COC(=O)[C@H](C)NP(=O)(OC[C@H]1O[C@@H](n2ccc(=O)[nH]c2=O)[C@](C)(F)[C@@H]1O)Oc1ccccc1", "strain": "WILD TYPE", "method": "replicon / PCR", "read-out": "EC90", "value": "1.6 µM"}
{"SMILES": "C=CCNC(=O)C(=O)C(CCCC)NC(=O)[C@@H]1C2[C@H](CN1C(=O)[C@@H](NC(=O)NC(C(=O)O)C(C)(C)C)C(C)(C)C)C2(C)C", "method": "replicon", "read-out": "EC90", "value": "10 µM"}
{"SMILES": "CC1(C)CC(=O)C2=C(C1)Nc1c(O)cccc1N(C(=O)c1cnccn1)C2c1ccc(OC(F)(F)c2ccccc2)cc1F", "strain": "1b", "method": "luciferase / reporter gene / replicon", "read-out": "EC50", "value": "9.49 µM"}
{"SMILES": "COc1cc([C@@H]2O[C@H](c3cc(OC)c4c(c3)OCO4)[C@@H](C)[C@@H]2C)cc(OC)c1OC", "strain": "Subgenomic replicon S52", "changes": "P1220S D1430H S2204I", "cells": "Huh7.5", "method": "luciferase", "read-out": "inhibition", "dose": "12.5 µM", "value": "98%"}
{"SMILES": "CC(C)C(=O)N1c2cccc(O)c2NC2=C(C(=O)CC(C)(C)C2)C1c1ccc(COc2ccccc2)o1", "strain": "1b", "method": "luciferase / reporter gene / replicon", "read-out": "EC50", "value": "3.68 µM"}
{"SMILES": "O=C1N/C(=N\\c2nnc(-c3ccc(Cl)cc3)s2)S/C1=C\\c1ccccc1Cl", "cells": "Huh7/Rep-Feo1b", "method": "MTS", "read-out": "inhibition", "dose": "100 µM", "value": "0%"}
{"SMILES": "CC(C)OC(=O)N[C@H](C(=O)N1C[C@@H]2OC(C)(C)C[C@@H]2C1C(=O)NC(CC1CC1)C(=O)C(=O)NCC(=O)N[C@H](C(=O)N(C)C)c1ccccc1)C(C)(C)C", "method": "replicon", "read-out": "EC90", "value": "1.8 µM"}
{"SMILES": "CC1(C)CC[C@@]2(C(=O)NCc3cn(CCCCn4cc(CNC(=O)[C@]56CCC(C)(C)CC5C5=CCC7[C@@]8(C)CC[C@H](O)C(C)(C)C8CC[C@@]7(C)[C@]5(C)C[C@H]6O)nn4)nn3)C(C1)C1=CCC3[C@@]4(C)CC[C@H](O)C(C)(C)C4CC[C@@]3(C)[C@]1(C)C[C@H]2O", "cells": "Huh7", "method": "luciferase / entry", "read-out": "inhibition", "dose": "1 µM", "value": "47.8%"}
{"SMILES": "CCOC(=O)[C@H](C)NP(=O)(OC[C@H]1O[C@@H](n2cc(F)c3c(N)ncnc32)[C@](C)(F)[C@@H]1O)Oc1ccccc1", "cells": "CEM", "method": "replicon", "read-out": "EC90", "value": ">10 µM"}
{"SMILES": "CC(C)(C)[C@H](NC(=O)N[C@H](C(=O)N1C[C@H]2C([C@H]1C(=O)NC(CC1CC1)C(=O)C(N)=O)C2(C)C)C(C)(C)C)C(=O)OC1CCCC1", "method": "replicon", "read-out": "EC90", "value": "0.8 µM"}
{"SMILES": "O=C(Nc1cccnc1Oc1ccccc1)C1CCN(Cc2ccccc2)CC1", "strain": "JFH-1", "cells": "Huh7", "method": "PCR", "read-out": "inhibition", "dose": "5 µM", "value": "≥40%"}
{"SMILES": "CC(C)(C)OC(=O)[C@@H](NC(=O)N[C@H](C(=O)N1C[C@H]2C([C@H]1C(=O)NC(CC1CC1)C(=O)C(=O)NCCc1ccccc1)C2(C)C)C(C)(C)C)C(C)(C)C", "method": "replicon", "read-out": "EC90", "value": "14 µM"}
{"SMILES": "C[C@@]1(F)[C@H](O)[C@@H](CO)O[C@@H]1n1cc(I)c2c(N)nc(N)nc21", "cells": "CEM", "method": "replicon", "read-out": "EC90", "value": ">10 µM"}

For reference, 4 entries again:

SMILES,strain,changes,cells,method,read-out,dose,value
CCCn1cc(CNC(=O)[C@]23CCC(C)(C)CC2C2=CCC4[C@@]5(C)CC[C@H](O)C(C)(C)C5CC[C@@]4(C)[C@]2(C)C[C@H]3O)nn1,,,Huh7,luciferase / entry,inhibition,5 µM,4.9%
COc1cccc(CN2CCC(C(=O)Nc3ccc(Oc4ccccc4F)cc3)CC2)c1,JFH-1,,Huh7,PCR,inhibition,15 µM,≥40%
CC1CCC(C(=O)N(c2cc(C#CC(C)(C)C)sc2C(=O)O)C2CCC(O)CC2)CC1,Con1 (gt 1b),A486V,Huh7,luciferase,fold resistance,,77.5
C[C@@]1(F)[C@H](O)[C@@H](CO)O[C@H]1n1cc(Br)c2c(N)ncnc21,,,CEM,replicon,EC90,,>10 µM

Rows are shuffled and stem from different studies. Fold resistance has wild type as its base. Inhibition is in % at the dose shown (toxicity tests: loss of growth or viability). ECn: concentration that inhibits the pathogen or its effect by n%. An empty or dashed field is not shown.